Test results as given in patent US20060062761A1.

Experiments:
[1] = molecular target: DRB1*0101 (human) (UniProt P01903); experiment: competition
[2] = molecular target: DRB1*0401 (human) (UniProt P01903); experiment: competition

Substance: Influenza haema 103-115
- IC50 [1]: 9 µM
- IC50 [2]: 7 µM
